Results of unrelated studies side by side (data: NIAID ChemDB).

All rows: tests in culture; organism: HIV-1; cell line: CEM; endpoint: EC50

ECn is the concentration giving n% inhibition of infection, replication or growth. Blank or dashed fields: not listed here. Conditions beyond the fields shown may differ between rows. a–b is a range or a potency band.

compound | strain | mutations | read by | value
CC(C)CN(C[C@@H](O)CCN(CC1CCCC1)S(=O)(=O)c1ccc(O)cc1)S(=O)(=O)c1ccc(O)cc1 | IIIB | - | p24 | <0.1 µM
CC(C)CCC[C@@H](C)[C@H]1CC[C@H]2[C@@H]3CC[C@H]4C[C@@H](CCC=C(c5cc(Cl)c(O)c(C(=O)O)c5)c5cc(Cl)c(O)c(C(=O)O)c5)CC[C@]4(C)[C@H]3CC[C@]12C | IIIB | - | cytopathic effect / XTT | 3 µg/mL
Cc1cn([C@H]2CC[C@@H](COC(=O)c3ccccc3)O2)c(=O)[nH]c1=O | - | - | cytopathic effect | <333 µM
O=S(=O)(Cc1ccccc1I)c1cccc[n+]1[O-] | HE | - | syncytia | 11 µg/mL
O=c1ccn([C@H]2CC[C@@H](CO)O2)c(=O)[nH]1 | IIIB | - | syncytia | >250 µM
CCCCCCCCCCCCCCC(=O)Oc1ccc(OP(=O)(OCc2ccc(OC(=O)CCCC)cc2)OP(=O)(O)OP(=O)(O)OC[C@@H]2C=C[C@H](n3cc(C)c(=O)[nH]c3=O)O2)cc1 | IIIB | - | syncytia / visual reading | 0.14 µM
COC(=O)CC[C@@H]1C[C@H]2CCC[C@](NC(=O)c3ccccc3C(=O)N[C@@]34CCC[C@@H](C[C@H](CCC(=O)OC)C3)C4)(C2)C1 | IIIB | - | syncytia | >20 µg/mL
O=C(O)c1cc(Cc2cc(Cl)c(O)c(C(=O)O)c2)cc(Cl)c1O | IIIB | - | cytopathic effect / XTT | 117 µM
NC(=O)C[C@@H](N)C(N)=O | IIIB | - | - | 500 µM
C[N+]1(C)CC2c3cc4c5c6c3-c3c(cc7c8c3C63C[N+](C)(C)CC36C3=C5C(C4)Cc4ccc5cc(c-8c6c5c43)C7)C2C1 | IIIB | - | cytopathic effect | >25 µM
CCCCCCC(=O)Oc1ccc(COP(=O)(OCc2ccc(OC(=O)CCCCCC)cc2)OP(=O)([O-])OC[C@@H]2C=C[C@H](n3ccc(=O)[nH]c3=O)O2)cc1 | IIIB | - | syncytia | 35 µM
O=c1[nH]c(=O)n([C@@H]2C[C@H](CO)C[C@H]2CO)cc1I | - | - | - | >100 µg/mL
CSCC[C@H](N)C(N)=O | IIIB | - | - | 500 µM
CCCCCCCCCC[N+](C)(C)CCCNCc1c(O)cc2c(c1O)-c1cc(ccc1O)[C@H]1NC(=O)[C@@H]3NC(=O)C4NC(=O)[C@@H](Cc5ccc(c(Cl)c5)Oc5cc3cc(c5O)Oc3ccc(cc3Cl)[C@@H](O)[C@H](NC1=O)C(=O)N[C@@H]2C(=O)O)NC(=O)[C@H](N)c1ccc(O)c(c1)Oc1cc(O)cc4c1 | - | RT-L100I | syncytia | 5.3 µM
Nc1nc(NC2CC2)c2ncn([C@H]3C=C[C@@H](CO)C3)c2n1 | IIIB | - | syncytia | 2.3 µM
CCCCCCCCCCCCCCCCCC(=O)Oc1ccc(OP(=O)(OCc2ccc(OC(=O)CCCC)cc2)OP(=O)(O)OP(=O)(O)OC[C@@H]2C=C[C@H](n3cc(C)c(=O)[nH]c3=O)O2)cc1 | IIIB | - | syncytia / visual reading | 0.12 µM
O=C1c2ccccc2C(=O)N1CC12CC3CC(CC(C3)C1)C2 | IIIB | - | syncytia | >4 µg/mL
CN[C@H](CC(C)C)C(=O)N[C@H]1C(=O)N[C@@H](CC(N)=O)C(=O)N[C@H]2C(=O)N[C@H]3C(=O)N[C@H](C(=O)N[C@H](C(=O)O)c4cc(O)c(CNCc5ccc(-c6ccc(Cl)cc6)cc5)c(O)c4-c4cc3ccc4O)[C@H](O[C@H]3C[C@](C)(N)[C@@H](O)[C@H](C)O3)c3ccc(cc3)Oc3cc2cc(c3OC2O[C@H](CO)[C@@H](O)[C@H](O)[C@H]2O[C@H]2C[C@](C)(N)[C@@H](O)[C@H](C)O2)Oc2ccc(cc2Cl)[C@H]1O | IIIB | - | syncytia | >22 µM
CC(C)CN(CC(O)CN1CCN(Cc2cccnc2)CC1C(=O)NC(C)(C)C)S(=O)(=O)c1ccccc1 | IIIB | - | p24 | <1 µM
Nc1nc2c(ncn2[C@H]2C=C[C@@H](CO)C2)c(=O)[nH]1 | IIIB | - | syncytia | 2 µM
COC(=O)C(C)NP(=O)(OC[C@H]1O[C@@H](n2cc(F)c(=O)[nH]c2=O)C[C@@H]1O)Oc1ccccc1 | - | - | - | 4.25 µM
Cc1cccc2c1CP(=O)(OC[C@@H]1CC[C@H](n3ccc(=O)[nH]c3=O)O1)CC2 | IIIB | - | syncytia | >50 µM
NCC(=O)O | IIIB | - | - | 500 µM
FC(F)(F)c1ccc(C2SCc3nc4ccccc4n32)cc1 | RF | - | cytopathic effect / MTT | >100 µM
O=C1NC(=S)NNC12c1ccccc1-c1ccccc12 | - | - | cytopathic effect / XTT | >200 µM
NC(=O)c1ccc(NC(=O)c2ccccc2SSc2ccccc2C(=O)Nc2ccc(C(N)=O)cc2)cc1 | - | - | cytopathic effect / XTT | 2.3 µM
Nc1c2ccccc2nc2ccccc12 | - | - | - | >50 µM
Cc1cn([C@H]2C=C[C@@H](CO)O2)c(=O)[nH]c1=O | IIIB | - | syncytia / microscopy | 0.86 µM
CN[C@H](CC(C)C)C(=O)N[C@H]1C(=O)N[C@@H](CC(N)=O)C(=O)N[C@H]2C(=O)N[C@H]3C(=O)N[C@H](C(=O)N[C@H](C(=O)O)c4cc(O)cc(O)c4-c4cc3ccc4O)[C@H](O)c3ccc(c(Cl)c3)Oc3cc2cc(c3O[C@@H]2O[C@H](CO)[C@@H](O)[C@H](O)[C@H]2O[C@H]2C[C@](C)(N)[C@H](O)[C@H](C)O2)Oc2ccc(cc2Cl)[C@H]1O | - | - | syncytia | 12 µM
Nc1ccn([C@@H]2O[C@H](CO)C=C2F)c(=O)n1 | - | - | p24 | 15–48 µM
O=C(O)CN(CCOCCOCCN1CC2c3cc4c5c6c3-c3c(cc7c8c3C63CN(CCOCCOCCN(CC(=O)O)CC(=O)O)CC36c3c-5c(cc5ccc9cc(c-8c6c9c35)C7)C4)C2C1)CC(=O)O | IIIB | - | cytopathic effect | >4 µM
Nc1nc(F)nc2c1ncn2[C@@H]1O[C@H](CO)C[C@@H]1F | IIIB | - | - | 1.2 µg/mL
Cc1cccc(C)c1C(=O)N1CCC(C)(N2CCC(Nc3ccc(Br)cc3)CC2)CC1 | - | - | cytopathic effect / XTT | 2.9 µM
NC1=NNC2(C(=O)N1)c1ccccc1-c1ccccc12 | - | - | cytopathic effect / XTT | >200 µM
COc1ccc(S(=O)(=O)N(CC(C)C)C[C@@H](O)CCN(CC2CCCC2)S(=O)(=O)CC2CCOC2)cc1 | IIIB | - | p24 | <1 µM
CCCCCCCCCC(=O)Oc1ccc(COP(=O)(OCc2ccc(OC(=O)CCCCCCCCC)cc2)OP(=O)(O)OC[C@@H]2C=C[C@H](n3cc(C)c(=O)[nH]c3=O)O2)cc1 | IIIB | - | syncytia / microscopy | 0.08 µM
CCn1cc(C(=O)O)c(=O)c2cc(F)c(N3CCN(c4ccccc4OC)CC3)c(OC(F)F)c21 | IIIB | - | cytopathic effect / MTT | 0.2 µM
Cc1cn([C@H]2C[C@H](F)[C@@H](CO)O2)c(=O)n(C)c1=O | IIIB | - | microscopy | >400 µg/mL
Cn1cc(C(=O)O)c(=O)c2cc(F)c(N3CC=C(c4ccccc4)CC3)c(C(F)(F)F)c21 | IIIB | - | p24 | 0.15 µM
COc1ccc(S(=O)(=O)N(CCC(O)CN(CC(C)C)S(=O)(=O)c2ccccc2)CC(C)C)cc1 | IIIB | - | p24 | <1 µM
O=C(NCc1ccccc1)c1ccccc1SSc1ccccc1C(=O)NCc1ccccc1 | - | - | cytopathic effect / XTT | 5 µM
CCCCC(=O)Oc1ccc(COP(=O)(OCc2ccc(OC(=O)CCCC)cc2)OP(=O)(O)OC[C@@H]2C=C[C@H](n3cc(C)c(=O)[nH]c3=O)O2)cc1 | IIIB | - | syncytia / microscopy | 2 µM
O=C1CSC2=NC(=O)C3(NN12)c1ccccc1-c1ccccc13 | - | - | cytopathic effect / XTT | >63 µM
NS(=O)(=O)c1ccccc1NC(=O)c1ccccc1SSc1ccccc1C(=O)Nc1ccccc1S(N)(=O)=O | - | - | XTT | 2.9 µM
O=C(O)C(SC1=NNC2(C(=O)N1)c1ccccc1-c1ccccc12)SC1=NNC2(C(=O)N1)c1ccccc1-c1ccccc12 | - | - | cytopathic effect / XTT | >20 µM
Cc1ccc(C)c(CS(=O)c2ccc(Cl)c[n+]2[O-])c1 | IIIB | - | - | 20 µg/mL
CCCCCCCCCCCCCCC(=O)Oc1ccc(OP(=O)(OCc2ccc(OC(=O)CC(C)C)cc2)OP(=O)(O)OP(=O)(O)OC[C@@H]2C=C[C@H](n3cc(C)c(=O)[nH]c3=O)O2)cc1 | IIIB | - | syncytia / visual reading | 0.17 µM
O=c1[nH]c(=O)n(C2C[C@H](CO)[C@@H](CO)C2)cc1I | - | - | - | >100 µg/mL
C[N+](C)(C)C.C[N+](C)(C)C.C[N+](C)(C)C.C[N+](C)(C)C.O=S(=O)([O-])c1cc(N=Nc2cc(S(=O)(=O)[O-])c3cccnc3c2O)ccc1/C=C/c1ccc(N=Nc2cc(S(=O)(=O)[O-])c3cccnc3c2O)cc1S(=O)(=O)[O-] | - | - | XTT | 0.17 µM
CCCCCCCCCC(=O)Oc1ccc(COP(=O)(OCc2ccc(OC(=O)CCCCCCCCC)cc2)OP(=O)([O-])OC[C@@H]2C=C[C@H](n3ccc(=O)[nH]c3=O)O2)cc1 | IIIB | - | syncytia | 32 µM
NS(=O)(=O)c1ccc(C(=O)Nc2ccccc2SSc2ccccc2NC(=O)c2ccc(S(N)(=O)=O)cc2)cc1 | - | - | XTT | >27 µM
CC(C)NS(=O)(=O)c1ccc(NC(=O)c2ccccc2SSc2ccccc2C(=O)Nc2ccc(S(=O)(=O)NC(C)C)cc2)cc1 | - | - | cytopathic effect / XTT | 16 µM
C[C@]1(CO)[C@@H](Cn2cnc3c(=O)[nH]c(N)nc32)C1(F)F | RF | - | - | 95 µM
C=CCNC(=O)NC1=CSC2=NC(=O)C3(NN12)c1ccccc1-c1ccccc13 | - | - | cytopathic effect / XTT | >63 µM
NCCCC[C@H](NC(=O)c1ccccc1SSc1ccccc1C(=O)N[C@@H](CCCCN)C(=O)O)C(=O)O | - | - | XTT | >100 µM
CC(=O)N1C(=O)CC(=O)N(c2nnc(C)c(/C=C/c3ccc(N(C)C)cc3)n2)C1=S | - | - | cytopathic effect / XTT | >0.317 µM
CC(C)C(=O)Oc1ccc(COP(=O)(OCc2ccc(OC(=O)C(C)C)cc2)OP(=O)([O-])OC[C@@H]2C=C[C@H](n3ccc(=O)[nH]c3=O)O2)cc1 | IIIB | - | syncytia | 32 µM
O=S(=O)(c1ccccc1)N(CCc1ccccc1)CC(O)CN(CC1CCCC1)S(=O)(=O)c1ccccc1 | IIIB | - | p24 | <1 µM
Cc1cn([C@H]2C[C@H](O)[C@@H](CO)O2)c(=O)n(C)c1=O | IIIB | - | microscopy | >400 µg/mL
O=C1NC23CC4CC(C2)C2C(C4)C3C2(O)c2ccccc21 | IIIB | - | syncytia | >20 µg/mL
C[C@]1(Cn2cnc3c(=O)[nH]c(N)nc32)[C@H](COCP(=O)(O)O)C1(F)F | RF | - | - | 80 µM
O=C(N[C@@H](CO)C(=O)O)c1ccccc1SSc1ccccc1C(=O)N[C@@H](CO)C(=O)O | - | - | XTT | >100 µM
Cc1[nH]cnc1CS(=O)(=O)N(CC1CCCC1)C[C@@H](O)CN(CCc1ccccc1)C(=O)c1ccccc1 | IIIB | - | p24 | <1 µM
O=c1[nH]c(=O)n([C@H]2C[C@H](O)[C@@H](CO)O2)cc1F | - | - | - | 0.038 µM
NC(=O)[C@@H](N)Cc1ccc(O)cc1 | IIIB | - | - | 500 µM
c1ccc2nc3ccccc3cc2c1 | - | - | - | >50 µM
Cc1cn([C@@H]2C[C@H](OC(C(=O)O)P(=O)(O)O)[C@@H](O)[C@H]2O)c(=O)[nH]c1=O | IIIB | - | syncytia | >250 µM
O=c1[nH]cnc2c1ncn2C1C[C@H](CO)[C@@H](CO)C1 | - | - | - | >100 µg/mL
CC(=O)Sc1ccccc1C(=O)NCCC(N)=O | IIIB | - | cytopathic effect / XTT | 0.6 µM

Again, the opening 9 rows:

compound | strain | mutations | read by | value
CC(C)CN(C[C@@H](O)CCN(CC1CCCC1)S(=O)(=O)c1ccc(O)cc1)S(=O)(=O)c1ccc(O)cc1 | IIIB | - | p24 | <0.1 µM
CC(C)CCC[C@@H](C)[C@H]1CC[C@H]2[C@@H]3CC[C@H]4C[C@@H](CCC=C(c5cc(Cl)c(O)c(C(=O)O)c5)c5cc(Cl)c(O)c(C(=O)O)c5)CC[C@]4(C)[C@H]3CC[C@]12C | IIIB | - | cytopathic effect / XTT | 3 µg/mL
Cc1cn([C@H]2CC[C@@H](COC(=O)c3ccccc3)O2)c(=O)[nH]c1=O | - | - | cytopathic effect | <333 µM
O=S(=O)(Cc1ccccc1I)c1cccc[n+]1[O-] | HE | - | syncytia | 11 µg/mL
O=c1ccn([C@H]2CC[C@@H](CO)O2)c(=O)[nH]1 | IIIB | - | syncytia | >250 µM
CCCCCCCCCCCCCCC(=O)Oc1ccc(OP(=O)(OCc2ccc(OC(=O)CCCC)cc2)OP(=O)(O)OP(=O)(O)OC[C@@H]2C=C[C@H](n3cc(C)c(=O)[nH]c3=O)O2)cc1 | IIIB | - | syncytia / visual reading | 0.14 µM
COC(=O)CC[C@@H]1C[C@H]2CCC[C@](NC(=O)c3ccccc3C(=O)N[C@@]34CCC[C@@H](C[C@H](CCC(=O)OC)C3)C4)(C2)C1 | IIIB | - | syncytia | >20 µg/mL
O=C(O)c1cc(Cc2cc(Cl)c(O)c(C(=O)O)c2)cc(Cl)c1O | IIIB | - | cytopathic effect / XTT | 117 µM
NC(=O)C[C@@H](N)C(N)=O | IIIB | - | - | 500 µM